Literature values in publication PMC11206691, “N-Hydroxypiridinedione: A Privileged Heterocycle for Targeting the HBV RNase H” (Molecules, 2024).

System: HBV replication
Conditions: CC50/EC50, earlier inhibitors; cited from earlier work

Row | Compound | SI
1 | COc1ccc(CON=C(C)c2c(C)cc(=O)n(O)c2O)cc1 [A24] | 352
2 | O=C(Nc1ccc2c(c1)C(=O)N(O)C(=O)C2C(=O)NCc1ccc(F)cc1)c1ccccc1 (centres unmarked) [HID] | 71
3 | NCc1ccc(-c2ccc(Cc3cc(=O)n(O)c4ncccc34)cc2)cc1 [HNO] | 2
4 | C/C(=N\c1cccc(Br)c1)c1c(C)cc(=O)n(O)c1O [HPD imine] | 58
5 | COC(=O)c1c2c(cc(O)c(=O)c1O)COC2=O [a-HT] | > 154
